PubChem BioAssay AID1259414 | Drosophila RNAi Screening Center, 2018

- Test: 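Host factors increasing or decreasing Wolbachia levels in cultured fly cells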 (primary screen)
- System: Drosophila JW18 cells infected with Wolbachia
- Reagent: long dsRNA against Drosophila genes, 0.25 µg dsRNA per well of a 384-well plate
- Duration: 5 days
- Conditions: cells persistently infected with Wolbachia before knock-down; no added drug
- Measurement: 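Imaged fluorescence in situ signal for Wolbachia 23S rRNA per DAPI-counted host cell, given as a robust z-score within each plate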
- Direction: Wolbachia per cell robust z: higher = more Wolbachia per host cell than the plate typical
- Rule for the call: 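Active if absolute robust z reaches 1.5 in two or more of three replicates, leaving out multi- or no-target dsRNAs, genes unexpressed in JW18 and A1 wells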
The deposit covers about 24,000 reagents; below is a random part of those that have a named target and a result. Of all reagents, about 1,210 (5%) got an active call. 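Inactive calls also include excluded dsRNAs with several or no targets, genes unexpressed in JW18, and well A1, regardless of score.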 Unmarked entries are inactive. A plus sign joins genes that one reagent is predicted to hit. Reagent sequences are not shown.

| gene | amplicon | Wolbachia per cell robust z, rep 1 | Wolbachia per cell robust z, rep 2 | Wolbachia per cell robust z, rep 3 |
| --- | --- | --- | --- | --- |
| Hrd3 | DRSC14156 | 0.457 | 0.606 | -0.272 |
| Hrd3 | DRSC41536 | 1.01 | 1.67 | 0.899 |
| crn | DRSC18184 | 1.56 (active) | 3.36 | 2.57 |
| crn | DRSC18185 | 2.01 (active) | 2.69 | 2.51 |
| crn | DRSC18755 | 1.96 (active) | -4.47 | 2.08 |
| CG13616 | DRSC14619 | 0.673 | 0.0289 | -4.98 |
| Nup44A | DRSC07248 | 1.4 | 1.34 | 2.5 |
| Nup44A | DRSC28141 | 0.116 | -0.474 | -0.61 |
| CG14860 | DRSC14983 | 0.141 | -0.699 | 0.18 |
| CG14860 | DRSC28932 | 0.418 | -0.675 | 0.0648 |
| Dtwd2 | DRSC12501 | -0.728 | -0.716 | -0.725 |
| CG6983 | DRSC10757 | -7.57 | 0.00167 | 1.03 |
| CG14647 | DRSC12233 | 0.318 | 0.012 | -0.0943 |
| CG14647 | DRSC22497 | -0.452 | -0.737 | -0.853 |
| CecB | DRSC16605 | 0.64 | 0.292 | -6.05 |
| Dgp-1 | DRSC07400 | 0.45 | 1.04 | -0.00856 |
| Rap1 | DRSC08686 | 0.367 (active) | 1.8 | 1.55 |
| Rap1 | DRSC25388 | -1.24 | 0.894 | 0.449 |
| CG13124 | DRSC02220 | -8.46 | 0.598 | -1.32 |
| CG13124 | DRSC27328 | -0.596 | -1.09 | -0.569 |
| eIF2gamma + Su(var)3-9 | DRSC13081 | 1.69 (active) | 1.18 | 2.13 |
| eIF2gamma + Su(var)3-9 | DRSC16873 | 0.477 | 1.47 | -0.913 |
| eIF2gamma + Su(var)3-9 | DRSC27837 | 0.728 (active) | 1.55 | 2.21 |
| gol | DRSC04689 | -1.45 | -0.236 | -1.15 |
| CG31810 | DRSC01560 | -2.18 | -0.387 | -1.05 |
| Pfdn4 | DRSC09761 | 0.00431 | -1.37 | -1.64 |
| Pfdn4 | DRSC26736 | -2.1 | 0.718 | 0.111 |
| CG31156 | DRSC15753 | 0.417 | -0.055 | -1.6 |
| CG31156 | DRSC15755 | 0.509 | -1.7 | 0.563 |
| CG33098 | DRSC22903 | -0.977 | -1.03 | -1.09 |
| Gadd45 | DRSC06033 | 0.207 | 1.15 | 0.489 |
| COX6AL2 | DRSC10082 | -0.302 | -5.04 | 0.654 |
| Fdx1 | DRSC11167 | -0.0389 | -1.13 | -0.337 |
| Fdx1 | DRSC28052 | 0.377 | -0.606 | 0.303 |
| CG34015 | DRSC38795 | 0.243 | -2.29 | 1.42 |
| CG30020 | DRSC06252 | 0.858 | -0.416 | -1.26 |
| CG30020 | DRSC06730 | -0.306 | 0.72 | -4.33 |
| Tbc1d15-17 | DRSC00313 | 0.336 | 0.445 | 1.38 |
| Tbc1d15-17 | DRSC28813 | 0.165 | 0.638 | 1.59 |

13 entries from above, reformatted.
{"gene":"Nup44A","amplicon":"DRSC28141","Wolbachia per cell robust z, rep 1":0.116,"Wolbachia per cell robust z, rep 2":-0.474,"Wolbachia per cell robust z, rep 3":-0.61}
{"gene":"CG14860","amplicon":"DRSC14983","Wolbachia per cell robust z, rep 1":0.141,"Wolbachia per cell robust z, rep 2":-0.699,"Wolbachia per cell robust z, rep 3":0.18}
{"gene":"CG14860","amplicon":"DRSC28932","Wolbachia per cell robust z, rep 1":0.418,"Wolbachia per cell robust z, rep 2":-0.675,"Wolbachia per cell robust z, rep 3":0.0648}
{"gene":"Dtwd2","amplicon":"DRSC12501","Wolbachia per cell robust z, rep 1":-0.728,"Wolbachia per cell robust z, rep 2":-0.716,"Wolbachia per cell robust z, rep 3":-0.725}
{"gene":"CG6983","amplicon":"DRSC10757","Wolbachia per cell robust z, rep 1":-7.57,"Wolbachia per cell robust z, rep 2":0.00167,"Wolbachia per cell robust z, rep 3":1.03}
{"gene":"CG14647","amplicon":"DRSC12233","Wolbachia per cell robust z, rep 1":0.318,"Wolbachia per cell robust z, rep 2":0.012,"Wolbachia per cell robust z, rep 3":-0.0943}
{"gene":"CG14647","amplicon":"DRSC22497","Wolbachia per cell robust z, rep 1":-0.452,"Wolbachia per cell robust z, rep 2":-0.737,"Wolbachia per cell robust z, rep 3":-0.853}
{"gene":"CecB","amplicon":"DRSC16605","Wolbachia per cell robust z, rep 1":0.64,"Wolbachia per cell robust z, rep 2":0.292,"Wolbachia per cell robust z, rep 3":-6.05}
{"gene":"Dgp-1","amplicon":"DRSC07400","Wolbachia per cell robust z, rep 1":0.45,"Wolbachia per cell robust z, rep 2":1.04,"Wolbachia per cell robust z, rep 3":-0.00856}
{"gene":"Rap1","amplicon":"DRSC08686","Wolbachia per cell robust z, rep 1":"0.367 (active)","Wolbachia per cell robust z, rep 2":1.8,"Wolbachia per cell robust z, rep 3":1.55}
{"gene":"Rap1","amplicon":"DRSC25388","Wolbachia per cell robust z, rep 1":-1.24,"Wolbachia per cell robust z, rep 2":0.894,"Wolbachia per cell robust z, rep 3":0.449}
{"gene":"CG13124","amplicon":"DRSC02220","Wolbachia per cell robust z, rep 1":-8.46,"Wolbachia per cell robust z, rep 2":0.598,"Wolbachia per cell robust z, rep 3":-1.32}
{"gene":"CG13124","amplicon":"DRSC27328","Wolbachia per cell robust z, rep 1":-0.596,"Wolbachia per cell robust z, rep 2":-1.09,"Wolbachia per cell robust z, rep 3":-0.569}

More results:
| gene | amplicon | Wolbachia per cell robust z, rep 1 | Wolbachia per cell robust z, rep 2 | Wolbachia per cell robust z, rep 3 |
| --- | --- | --- | --- | --- |
| dve | DRSC04680 | -0.988 | -1.16 | -0.973 |
| dve | DRSC28692 | -7.06 | 0.575 | 0.152 |
| CG8654 | DRSC07231 | 1.39 | 0.619 | 0.954 |
| CG32554 | DRSC22713 | 0.345 | 0.632 | -0.821 |
| CG32554 | DRSC29616 | -0.263 | -1.93 | -0.201 |
| HDAC1 | DRSC08696 | 0.418 | 2.18 | -0.549 |
| HDAC1 | DRSC40782 | 0.329 | 1.25 | 0.928 |
| CG5346 | DRSC15778 | -3.08 (active) | -5.24 | 0.0789 |
| CG5346 | DRSC26107 | -0.626 | 0.129 | -0.477 |
| CG5346 | DRSC39072 | 0.817 | 0.214 | 0.334 |
| CG32270 + CG32269 | DRSC08195 | 0.0239 | 1.29 | 0.395 |
| atms | DRSC12310 | 0.294 | 0.259 | 0.914 |
| atms | DRSC27502 | 0.732 | 0.569 | 1.11 |
| trx | DRSC17089 | 4.53 (active) | -2.02 | -4.58 |
| trx | DRSC38481 | 0.109 | -0.0564 | -1.84 |
| CG31253 + CG31131 | DRSC13839 | 0.527 | -1.63 | -0.45 |
| CG7083 | DRSC11136 | -1.64 | 1.15 | 1.36 |
| CG7083 | DRSC24327 | -0.395 (active) | 2.87 | 1.91 |
| Nubp2 | DRSC11758 | -1.28 | 0.359 | -0.801 |
| betaCOP | DRSC20312 | 0.143 (active) | 1.53 | 4.36 |
| betaCOP | DRSC27169 | 2.06 (active) | 0.944 | 2.14 |
| Alg-2 | DRSC07799 | -3.85 | 0.366 | -1.45 |
| Alg-2 | DRSC41455 | -0.427 | -0.55 | -1.96 |
| CG9030 | DRSC20139 | 0.643 | 1.01 | -1.48 |
| Dnah3 | DRSC08130 | -5.5 | -4.89 | -6.61 |
| Dnah3 | DRSC08513 | -1.04 | -2.51 | -0.547 |
| Dnah3 | DRSC28789 | 0.569 | -0.311 | 0.805 |
| CG1638 | DRSC15132 | 1.58 | -0.682 | -0.106 |
| CG1638 | DRSC29986 | 0.388 | 0.824 | 0.546 |
| CG10936 | DRSC05669 | 0.901 | -0.23 | 0.0291 |
| CG10936 | DRSC05670 | -6.14 | 0.374 | 0.325 |
| CG10936 | DRSC06018 | -3.02 | -0.2 | -2.51 |
| CG30467 | DRSC07097 | -1.11 | 0.66 | -1.95 |
| Cln3 | DRSC10520 | -0.287 | -5.03 | 0.207 |
| Cln3 | DRSC27270 | 0.205 | 0.0287 | 0.459 |
| Rpp21 | DRSC22480 | -0.349 | 0.0787 | 0.371 |
| Rpp21 | DRSC29867 | 0.282 | 1.66 | 1.31 |
| mAChR-A | DRSC04702 | 1.26 | 0.217 | 0.396 |
| mAChR-A | DRSC28262 | -0.512 | 0.159 | 1.13 |
| Mat89Ba | DRSC14540 | -0.219 | -0.761 | -0.572 |
| Mat89Ba | DRSC29166 | -0.0485 | -1.74 | -0.929 |
| Tim9b + Pstk | DRSC19504 | -0.22 | -1.02 | 0.362 |
| Tim9b + Pstk | DRSC20292 | 0.181 | 1.34 | 0.481 |
| Setx | DRSC10859 | 0.0334 | 0.984 | 1.28 |
| dgt6 | DRSC14424 | -0.00679 | 0.596 | -0.842 |
| CR40450 + CG32767 | DRSC18387 | 0.981 | -0.26 | 0.487 |
| Dbct | DRSC19951 | -4.38 | -0.846 | -0.187 |
| Dbct | DRSC25764 | -1.2 | -8.62 | -1.43 |
